One molecule from patent publication US20030232325A1 (MOUNT SINAI SCHOOL OF MEDICINE OF NEW YORK UNIVERSITY, published 2003) can be followed below.

The assay concerns the target NS1 protein of influenza A virus synthesized in vitro from pcDNA3-NS1 (coupled transcription/transla (influenza A virus)). The assay is described as follows: glutathione Sepharose pull-down of in vitro translated 35S-NS1.

B1: GST protein (glutathione-S-transferase expressed from pGEX-5X-1) (other)
chain: MSPILGYWKIKGLVQPTRLLLEYLEEKYEEHLYERDEGDKWRNKKFELGLEFPNLPYYIDGDVKLTQSMAIIRYIADKHNMLGGCPKERAEISMLEGAVLDIRYGVSRIAYSKDFETLKVDFLSKLPEMLKMFEDRLCHKTYLNGDHVTHPDFMLYDALDVVLYMDPMCLDAFPKLVCFKKRIEAIPQIDKYLKSSKYIAWPLQGWQATFGGGDHPPK
For the molecule B1, the binding result is “no binding”.
